For at least one entry, the source does not settle the construct or the ends of the probe. At least one verdict rests on a figure or table, not on a statement of the authors.
Target: PrfA WT (Listeria monocytogenes) (UniProt P22262)
Experiment: BLI
Conditions: no ligand; recombinant protein; residues 1-237; protein details: His-tag (pET28a); label: 5' biotin-TEG on both listed oligos (S44, S45)

Amino acid sequences for entries named in this document (tags omitted). A change or cut given only in a name is not applied to a line headed by its entry.
UniProt P22262: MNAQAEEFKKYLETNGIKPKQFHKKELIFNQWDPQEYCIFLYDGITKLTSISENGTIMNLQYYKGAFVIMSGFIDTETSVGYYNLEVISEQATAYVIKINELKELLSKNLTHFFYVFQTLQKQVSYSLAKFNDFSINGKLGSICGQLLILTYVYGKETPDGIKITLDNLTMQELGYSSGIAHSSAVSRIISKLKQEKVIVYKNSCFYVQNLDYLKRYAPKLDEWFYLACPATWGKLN

“TGTCCCTTTATCGTCGTTAACAAATGTTAATGCCTCGACA (double strand) [PplcA/Phly PrfA box (Phlybox)]”: binds.
